{"source": "paper PMC8828479", "about": "“Broadly neutralizing antibodies target a haemagglutinin anchor epitope” (Nature, 2021)", "binders": {"B1": {"name": "222-1C06 Fab (Fab, V domains shown)", "VH": "EVQLVESGGDLVQPGGSLRLSCVVSGFTFSTYSMNWVRQAPGKGLEWVSYISSSSLSRYYADSVKGRFTISRDNAKNSLSLQLNSLRAEDTAVYYCVRGSITWPTEYYLDYWGQGTLVTVSS", "VL": "EIVMTQSPATLSVSPGERATLSCRASQTIRSDLAWYQQKPGQPPRLIIYGASTRATGIPARFSGSGSGTEFTLTISSLQSEDSAVYFCQQYNNWPPLTFGGGTKVEIK"}}, "target": "H5 HA (A/Indonesia/5/2005) (Influenza A virus A/Indonesia/5/2005 …, UniProt A5A5L7)", "assay": "negative-stain EM; […] 2D class averages and 3D reconstructions", "conditions": "both partners purified", "data": [{"binder": "B1", "values": [{"measurement": "binding result", "result": "binds"}]}]}
